Laboratory results: patent US8492428B2 (priority 2005, dated 2013)

The chains behind the UniProt entries cited, without tags or fusion partners. Where a name states a change or a piece, a line headed by the entry shows the natural chain unless it says otherwise.
UniProt P0DPI0: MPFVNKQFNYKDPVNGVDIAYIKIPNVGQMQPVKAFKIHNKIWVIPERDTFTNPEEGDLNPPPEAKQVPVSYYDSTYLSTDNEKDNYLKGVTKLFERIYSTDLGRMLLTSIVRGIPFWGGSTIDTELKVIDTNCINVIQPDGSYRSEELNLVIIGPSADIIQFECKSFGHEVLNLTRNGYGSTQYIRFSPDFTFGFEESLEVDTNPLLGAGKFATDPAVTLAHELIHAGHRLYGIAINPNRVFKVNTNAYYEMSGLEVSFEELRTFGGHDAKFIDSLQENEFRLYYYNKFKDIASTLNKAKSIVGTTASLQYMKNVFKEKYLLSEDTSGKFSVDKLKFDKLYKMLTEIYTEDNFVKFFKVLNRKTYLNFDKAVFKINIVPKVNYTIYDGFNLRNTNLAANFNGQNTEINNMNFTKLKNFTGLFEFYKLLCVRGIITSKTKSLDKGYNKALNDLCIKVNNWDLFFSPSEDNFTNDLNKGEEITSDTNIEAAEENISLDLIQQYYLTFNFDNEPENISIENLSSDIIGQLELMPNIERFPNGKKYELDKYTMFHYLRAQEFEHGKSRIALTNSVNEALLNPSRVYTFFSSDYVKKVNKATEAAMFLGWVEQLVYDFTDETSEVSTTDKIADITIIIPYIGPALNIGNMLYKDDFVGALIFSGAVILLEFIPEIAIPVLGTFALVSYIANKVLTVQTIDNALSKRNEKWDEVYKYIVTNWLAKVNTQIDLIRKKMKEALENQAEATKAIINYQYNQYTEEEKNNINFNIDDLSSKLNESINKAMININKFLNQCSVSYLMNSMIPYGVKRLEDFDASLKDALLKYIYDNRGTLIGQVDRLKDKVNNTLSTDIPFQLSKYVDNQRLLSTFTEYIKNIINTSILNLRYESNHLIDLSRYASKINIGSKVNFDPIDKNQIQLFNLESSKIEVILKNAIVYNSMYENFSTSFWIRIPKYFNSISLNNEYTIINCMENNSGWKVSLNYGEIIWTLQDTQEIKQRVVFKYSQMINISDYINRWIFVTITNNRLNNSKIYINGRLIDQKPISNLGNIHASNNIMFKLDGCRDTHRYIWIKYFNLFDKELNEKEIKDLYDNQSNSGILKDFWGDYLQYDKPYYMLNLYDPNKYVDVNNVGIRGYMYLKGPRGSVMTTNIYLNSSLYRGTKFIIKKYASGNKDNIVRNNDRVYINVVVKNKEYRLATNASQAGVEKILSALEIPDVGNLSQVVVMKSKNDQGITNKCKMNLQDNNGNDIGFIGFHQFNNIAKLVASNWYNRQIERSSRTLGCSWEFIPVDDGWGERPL

target: endopeptidase (LC) of botulinum neurotoxin serotype A (BoNTA) (Clostridium botulinum, UniProt P0DPI0); assay: HPLC-based BoNTA light chain protease inhibition assay; format: biochemical; details: drug concentration 15 μM

Substance	% inhibition of BoNTA at 15 μM [%]
2-(5-1-(4-Aminobutyl)-2-phenyl-1H-indole-6-carbonyl)-2-(3-hydroxyphenyl)-thiophen-3-yl)-N-hydroxyacetamide TFA salt	77
2-(5-1-(4-Aminobutyl)-2-phenyl-1H-indole-6-carbonyl)-2-(4-fluorophenyl)-thiophen-3-yl)-N-hydroxyacetamide TFA salt	67
2-(5-1-(4-Aminobutyl)-2-phenyl-1H-indole-6-carbonyl)-2-(pyrimidin-5-yl)thiophen-3-yl)-N-hydroxyacetamide TFA salt	50
